A mixed list of measured activities; the numbers were collected in NIAID ChemDB.

Shared fields: tests in culture; organism: Mycobacterium kansasii

Conditions beyond the fields shown may differ between rows.

structure	strain	read by	conditions	measure	value
CC(C)c1ccc(NC(=O)NNC(=O)c2ccncc2)cc1	My 235/80	broth dilution	14 d	MIC100	16 µM
O=C(Nc1cccc(Br)c1)c1cc(Cl)ccc1OS(=O)(=O)c1ccccc1	235/80	-	14 d	MIC	16 µM
O=C(NNC(=O)c1ccncc1)Nc1ccc(Cl)c(C(F)(F)F)c1	My 6509/96	broth dilution	14 d	MIC100	125 µM
O=C(Nc1cccc(C(F)(F)F)c1)c1ccc(Cl)cc1OS(=O)(=O)c1ccccc1	235/80	-	14 d	MIC	125 µM
O=C(Oc1ccc(Cl)cc1C(=O)Nc1ccc(Cl)c(Cl)c1)c1cnccn1	6509/96	-	14 d	MIC	2 µM
O=C(NNC(=O)c1ccncc1)Nc1ccc(Br)c(F)c1	My 6509/96	broth dilution	14 d	MIC100	125 µM
O=C(Oc1ccc(Cl)cc1)c1cnccn1	6509/96	-	14 d	MIC	250 µM
Cc1ccc2oc(=S)n(-c3ccc(F)cc3)c(=S)c2c1	6509/96	-	14 d	MIC	4 µM
O=C(Nc1cccc(F)c1)c1cc(Cl)ccc1OS(=O)(=O)c1ccccc1	235/80	-	14 d	MIC	32 µM
O=C(Oc1cc(Cl)ccc1C(=O)Nc1ccc(Br)cc1)c1cnccn1	235/80	-	14 d	MIC	4 µM
NNC(=O)c1ccncc1	My 235/80	broth dilution	14 d	MIC100	>250 µM
O=C(Oc1ccc(Cl)cc1C(=O)Nc1ccc(Br)cc1)c1cnccn1	6509/96	-	7 d	MIC	2 µM
O=C(NNC(=O)c1ccncc1)Nc1cc(Cl)cc(Cl)c1	My 235/80	broth dilution	14 d	MIC100	125 µM
O=c1oc2ccc(Br)cc2c(=S)n1-c1ccc(Br)cc1	My 235/80	-	21 d	MIC	4 µM
Nc1ccc(C(=O)O)c(O)c1	235/80	-	21 d	MIC	>1000 µM
Cc1ccc2oc(=O)n(-c3ccc(C(F)(F)F)cc3)c(=S)c2c1	My 235/80	-	14 d	MIC	16 µM
O=C(NNC(=O)c1ccncc1)Nc1ccc(F)cc1Br	My 6509/96	broth dilution	14 d	MIC100	>125 µM
O=C(Nc1ccc(Br)cc1)c1cc(Cl)ccc1OS(=O)(=O)c1ccccc1	235/80	-	21 d	MIC	8 µM
O=C(NNC(=O)c1ccncc1)Nc1ccc(C(F)(F)F)cc1	My 235/80	broth dilution	14 d	MIC100	>125 µM
O=C(Nc1ccc(Cl)c(Cl)c1)c1cc(Cl)ccc1OS(=O)(=O)c1ccccc1	6509/96	-	-	MIC	8 µM
O=C(NNC(=O)c1ccncc1)Nc1ccc(F)c(C(F)(F)F)c1	My 235/80	broth dilution	14 d	MIC100	125 µM
Cc1ccc2oc(=O)n(-c3ccc(F)cc3)c(=S)c2c1	6509/96	-	21 d	MIC	8 µM
O=C(Oc1cc(Cl)ccc1C(=O)Nc1ccc(F)cc1)c1cnccn1	235/80	-	21 d	MIC	4 µM
O=c1oc2ccc(Br)cc2c(=S)n1-c1cccc(F)c1	My 235/80	-	21 d	MIC	8 µM
O=C(NNC(=O)c1ccncc1)Nc1ccc(Br)c(C(F)(F)F)c1	My 235/80	broth dilution	7 d	MIC100	>125 µM
O=C(Oc1ccc(Cl)cc1C(=O)Nc1ccc(F)cc1)c1cnccn1	235/80	-	14 d	MIC	8 µM
O=C(Nc1ccc(Br)cc1)c1ccc(Br)cc1OS(=O)(=O)c1ccccc1	6509/96	-	-	MIC	8 µM

The last 2 rows once more:

structure | strain | read by | conditions | measure | value
O=C(Oc1ccc(Cl)cc1C(=O)Nc1ccc(F)cc1)c1cnccn1 | 235/80 | - | 14 d | MIC | 8 µM
O=C(Nc1ccc(Br)cc1)c1ccc(Br)cc1OS(=O)(=O)c1ccccc1 | 6509/96 | - | - | MIC | 8 µM

An empty or dashed field is not shown. MIC50, MIC90 and the like: level of inhibition, or share of isolates inhibited.